Measured values taken from patent US6841368B1, “Enzymatic production of difructose dianhydride IV from sucrose and relevant enzymes and genes coding for them” (priority 1999, dated 2005).

Type: biochemical, A. ureafaciens K2032
Settings: purified enzyme
Protocol: A. ureafaciens K2032 was inoculated in a selective broth containing levan as a major carbon source and cultured at 30° C. for 72 hours in an incubator. Investigation into the growth and levan fructotransferase activity of the bacteria provided the knowledge that the largest enzyme activity is obtained after 10 hours of the incubation. From the culture incubated for 10 hours, the enzyme was purified (FIG. 5). In this regard, the purification was achieved by successively using acetone precipitation, ion exchange chromatography (DEAE 650-M and Mono Q), and gel filtration chromatography, resulting in producing levan fructotransferase with a specific activity of 2269 U/mg protein at an amount of 1.1 mg at a yield of 29.8% (Table 8).
The purified enzyme was 51,000 in molecular weight as measured by SDS-PAGE while being measured to have a molecular weight of 96,000 by gel filtration chromatography. Thus, it was identified as being a dimer in aqueous conditions. […] Also, it was of optimal activity at 55° C. […] Whereas being inhibited by Mn^2+, Fe^2+ and Hg^2+, the activity of the enzyme was enhanced by […] and Ca^2+.
The newly isolated levan fructotransferase structural gene is composed of 1566 bp which corresponds to 521 aa. […]

B1: levan fructotransferase: enzyme purified from A. ureafaciens K2032 that produces DFA IV from levan; SEQ ID NO: 1 (protein)
chain: MTPAISRRAVLQGAGAGALALIFGGAVPPAARASAPGSLRAVYHMTPPSGWLCDPQRPVTTHGAYQLYYLHSDQNNGPGGWDHASTTDGVAFTHHGTVMPLRPDFPVWSGSAVVGTANTAGFGAGAVVALATQPTDGVRKYQEQYLYWSTDGGFTFTALPDPVIVNTDGRAATTPAEIENAEWFRDPKIHWDTARGEWVCVIGRLRYAAFYTSPNLRDWTLRRNFDYPNHALGGIECPDLFEITADDGTRHWVLAASMDAYGIGLPMTYAYWTGTWDGEQFHADDLTPQWLDWGWDWYAAVTWPSIDAPETKRLAIAWMNNWKYAARDVPTDASDGYNGQNSIVRELRLARQPGGWYTLLSTPVAALTNYVTATTTLPDRTVDGSAVLPWNGRAYEIELDIAWDTATNVGISVGRSPDGTRHTNIGKYGADLYVDRGPSDLAGYSLAPYSRAAAPIDPGARSVHLRILVDTQSVEVFVNAGHTVLSQQVHFAEGDTGISLYTDGGPAHFTGIVVREIGQAI
modifications: Arthrobacter ureafaciens K2032
**Q.** Which results are given for B1?
**A.** Temperature of optimal activity: 55 °C; pH of optimal activity: ~6.0
